These results are taken from PMC9239176.

What all share (test): pull-down LC-MS/MS
What all share (conditions): pull-down: cell lysate, 4 C 4 h, protein in an extract, label: 5' biotin on strand 1

For data set [1], the target named is Deoxyguanosine triphosphate triphosphohydrolase (Salmonella enterica serovar Cerro 87) (UniProt P40733).
Data set [2] deals with T1, Exodeoxyribonuclease VII large subunit (Salmonella enterica serovar Cerro 87) (UniProt Q8ZN58).
T1 sequence (looked up, limits assumed): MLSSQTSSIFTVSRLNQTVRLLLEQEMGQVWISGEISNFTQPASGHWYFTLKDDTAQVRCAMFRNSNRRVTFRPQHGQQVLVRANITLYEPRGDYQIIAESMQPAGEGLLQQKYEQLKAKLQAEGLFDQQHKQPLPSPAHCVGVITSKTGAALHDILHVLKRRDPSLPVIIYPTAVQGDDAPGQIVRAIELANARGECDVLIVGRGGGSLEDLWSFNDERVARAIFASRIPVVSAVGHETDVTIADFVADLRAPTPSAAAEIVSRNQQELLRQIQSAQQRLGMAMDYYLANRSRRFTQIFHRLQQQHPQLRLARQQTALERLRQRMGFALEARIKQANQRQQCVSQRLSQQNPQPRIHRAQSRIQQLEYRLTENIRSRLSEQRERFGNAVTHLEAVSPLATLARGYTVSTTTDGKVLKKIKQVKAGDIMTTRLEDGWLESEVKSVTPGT

In data set [3] the target is T2, DndC (Salmonella enterica serovar Cerro 87) (UniProt E2D677).
T2 sequence (looked up, limits assumed): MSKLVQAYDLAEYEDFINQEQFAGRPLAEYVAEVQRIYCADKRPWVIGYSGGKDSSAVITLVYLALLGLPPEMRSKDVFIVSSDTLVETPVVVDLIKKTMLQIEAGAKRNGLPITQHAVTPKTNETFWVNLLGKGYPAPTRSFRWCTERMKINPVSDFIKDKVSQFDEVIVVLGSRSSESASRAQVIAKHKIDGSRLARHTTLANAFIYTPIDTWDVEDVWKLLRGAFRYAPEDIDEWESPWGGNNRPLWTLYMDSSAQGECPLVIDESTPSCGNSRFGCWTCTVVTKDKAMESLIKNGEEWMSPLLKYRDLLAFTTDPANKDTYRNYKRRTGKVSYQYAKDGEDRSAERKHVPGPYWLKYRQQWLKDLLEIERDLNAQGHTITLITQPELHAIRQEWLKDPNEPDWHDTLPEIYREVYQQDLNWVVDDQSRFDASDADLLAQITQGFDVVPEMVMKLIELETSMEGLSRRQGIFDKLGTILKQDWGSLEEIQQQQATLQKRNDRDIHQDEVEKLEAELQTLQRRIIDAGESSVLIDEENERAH

For data set [4], the target named is T3, D-serine dehydratase transcriptional activator DsdC (Salmonella enterica serovar Cerro 87) (UniProt A0A0H3NTZ7).
T3 sequence (looked up, limits assumed): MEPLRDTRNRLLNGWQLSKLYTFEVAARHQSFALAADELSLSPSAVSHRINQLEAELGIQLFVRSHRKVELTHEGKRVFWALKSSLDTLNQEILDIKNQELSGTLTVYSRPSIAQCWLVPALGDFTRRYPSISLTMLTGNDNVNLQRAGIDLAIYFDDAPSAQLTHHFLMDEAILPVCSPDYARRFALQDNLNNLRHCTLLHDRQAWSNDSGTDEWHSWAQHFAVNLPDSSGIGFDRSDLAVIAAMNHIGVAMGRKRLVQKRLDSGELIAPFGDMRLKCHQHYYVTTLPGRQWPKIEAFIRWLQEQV

For data set [5], the target named is T4, Formate hydrogenlyase transcriptional activator FhlA (Salmonella enterica serovar Cerro 87) (UniProt P0CL46).
T4 sequence (looked up, limits assumed): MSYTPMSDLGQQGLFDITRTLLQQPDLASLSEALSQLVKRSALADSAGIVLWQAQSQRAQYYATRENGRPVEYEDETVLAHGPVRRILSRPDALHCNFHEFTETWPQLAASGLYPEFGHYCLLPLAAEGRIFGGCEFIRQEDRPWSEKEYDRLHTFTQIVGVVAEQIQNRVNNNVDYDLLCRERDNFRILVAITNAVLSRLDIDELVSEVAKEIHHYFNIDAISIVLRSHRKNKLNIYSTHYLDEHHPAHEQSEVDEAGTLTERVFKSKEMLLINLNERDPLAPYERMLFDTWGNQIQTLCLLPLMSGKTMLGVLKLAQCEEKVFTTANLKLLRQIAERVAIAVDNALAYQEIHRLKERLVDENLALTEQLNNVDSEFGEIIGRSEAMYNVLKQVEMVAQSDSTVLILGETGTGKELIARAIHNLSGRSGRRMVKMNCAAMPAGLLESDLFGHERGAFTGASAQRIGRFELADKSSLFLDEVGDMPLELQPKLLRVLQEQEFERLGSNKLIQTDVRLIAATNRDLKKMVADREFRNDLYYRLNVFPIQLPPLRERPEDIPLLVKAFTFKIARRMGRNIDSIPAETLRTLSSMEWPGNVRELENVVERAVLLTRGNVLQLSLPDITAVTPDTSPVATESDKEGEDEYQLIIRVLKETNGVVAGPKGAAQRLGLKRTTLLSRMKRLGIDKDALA

The target of data set [6] is Helicase PriA (Salmonella enterica serovar Cerro 87) (UniProt Q8ZKN8).
Data set [7] concerns the target T5, TorR (lysate) (Salmonella enterica serovar Cerro 87) (UniProt Q8ZKZ5).
T5 sequence (looked up, limits assumed): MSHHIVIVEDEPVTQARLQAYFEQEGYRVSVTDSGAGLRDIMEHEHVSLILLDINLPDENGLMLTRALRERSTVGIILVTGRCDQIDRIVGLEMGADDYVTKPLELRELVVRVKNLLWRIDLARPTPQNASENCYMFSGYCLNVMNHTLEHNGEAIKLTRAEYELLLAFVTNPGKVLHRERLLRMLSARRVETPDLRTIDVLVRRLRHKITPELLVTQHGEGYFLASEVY

Setting [8] is: phosphorothioate: strand 1 between G13 and A14, strand 2 between G15 and T16.

The exact form of at least one protein or probe is not confirmed. Results from cells or extracts need not show a direct contact. The direction of at least one scale is not stated here. For some assays here: Where a protein sequence is shown, tags need not be part of it.

For the sequence “GGCCCACTACGTGAACCATCACCCTAATCA (double strand) [B34]”, the binding signal (B34/B12 ratio) turned out to be 3.58 in data set [1]; 2.15 in data set [2]; 0.4 in data set [3]; 0.13 in data set [4]; 5.24 in data set [5]; 0.22 in data set [6]. In data set [7] (0 spectra), the binding signal (B34/B12 ratio) came out at 0.
As to “GGCCCACTACGTGAACCATCACCCTAATCA (double strand) [B12]”, the binding signal (normalized spectral count) is 3.28 in data set [1] (setting [8]); 7.96 in data set [2] (setting [8]); 6.1 in data set [3] (setting [8]); 15.5 in data set [4] (setting [8]); 0 in data set [5] (0 spectra, phosphorothioate: strand 1 between G13 and A14, strand 2 between G15 and T16); 6.57 in data set [6] (setting [8]). Further, in data set [7] (setting [8]), the binding signal (normalized spectral count) was found to be 6.57.
